Consider 1 substance from PMC2936744 (PLoS Pathogens, 2010).

For this test, the system named is HCVcc-1a/2a-Rluc. Type of test: cell-based, hepatitis C virus. The note with it: mean of 8 independent experiments.

Consider IFN-α, for which the “EC50 of the individual inhibitor in combination experiments” value is 1.28 IU/ml.
